Assay in all cases: SPR; gp140 (100 nM) captured on amine-coupled Mab 5F3; with or without DC-SIGN or Langerin (50 nM) injected first; then fluid phase CD4 (50-500 nM); HBS-P pH 7.4 with 10 mM CaCl2; two-step linked reaction model, apparent KD; t1/2 = ln 2/kd
(In general: SPR reads the build-up and loss of mass on a sensor chip optically.)

By UniProt entry, the sequences of proteins in these tests, tags left out. Where a name states a change or a piece, a line headed by the entry shows the natural chain unless it says otherwise.
UniProt Q9NNX6: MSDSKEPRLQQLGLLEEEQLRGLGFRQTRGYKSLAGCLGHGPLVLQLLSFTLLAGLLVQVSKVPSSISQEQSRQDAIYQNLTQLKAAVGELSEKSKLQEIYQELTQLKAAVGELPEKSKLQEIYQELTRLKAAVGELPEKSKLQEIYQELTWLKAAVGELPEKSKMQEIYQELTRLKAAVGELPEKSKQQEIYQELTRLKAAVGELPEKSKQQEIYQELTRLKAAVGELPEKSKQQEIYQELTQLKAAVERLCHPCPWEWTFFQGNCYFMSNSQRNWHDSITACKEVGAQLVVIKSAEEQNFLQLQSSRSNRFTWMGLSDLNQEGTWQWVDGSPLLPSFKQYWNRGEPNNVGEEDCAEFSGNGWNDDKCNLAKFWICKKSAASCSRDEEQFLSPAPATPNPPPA

The target of experiment [1] is DC-SIGN:gp140 (BX08) complex, formed on the chip before the ligand was injected (HIV-1 strain 92FR_BX08 (clade B, R5) | not stated) (UniProt Q9NNX6).
For experiment [2], the target named is HIV-1 BX08 gp140 (soluble, trimeric ectodomain of the envelope glycoprotein, residues 31-663) (HIV-1 strain 92FR_BX08 (clade B, R5)).
For experiment [3], the target named is Langerin:gp140 (BX08) complex, formed on the chip before CD4 was injected (HIV-1 strain 92FR_BX08 (clade B, R5) | not stated) (UniProt Q9UJ71).

Consider one substance from paper PMC3233575.

For the substance “CHO-expressed soluble CD4 (from UniProt P01730 26-396) (receptor)”, the t1/2 of the complex in experiment [1] was above 190 h; in experiment [3], 16 min. Further, the Kd in experiment [2] came to 2.4 nM.
